The source of these data is the supplement of paper PMC12637763.

Changes are numbered by the printed parent chain. This is one part of the list. Env chains of viruses from a treatment-interruption trial, translated from the printed DNA. IC50 / IC80 of two broadly neutralizing antibodies; lower = more sensitive virus; >50 µg/ml means not reached and <0.001 µg/ml is below the lowest dose. No active / inactive call.

Experiment [1] addresses antibody 10-1074. The experiment in a line: neutralization IC50; higher = virus less sensitive to the antibody. The protocol:
(§1)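 Pseudovirus bearing the Env chain mixed with antibody, from 50 µg/ml in fivefold dilutions, on TZM-bl reporter cells, in duplicate.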

In experiment [2] the target is antibody 3BNC117. The experiment is described as above. The method, then: as §1
For experiment [3], the target named is antibody 10-1074. Kind of experiment: neutralization IC80; higher = virus less sensitive to the antibody. The protocol: as §1
The target in experiment [4] is antibody 3BNC117. The experiment is described as above. The protocol: as §1

B1: HIV-1 Env, rebound clone, antibody arm (protein)
chain: MKVKVTMRNYQNLWRGGTLLLGMLMICSGAEQLWVTVYYGVPVWKEANTTLFCASDAKAYDTEVHNVWATHACVPTDPSPQEVVLENVTEDFNIWKNNMVEQMHEDIISLWDQSLKPCVKLTPLCVTLNCSNVNNQTGTNNNSSHGKDVEGEMKNCSFNVTTNIRDKIKREYALLYKLDIVPIDNDNTSYTLTSCNTSVITQACPKVSFEPIPIHYCAPAGFAILKCNNKTFNGKGPCTNVSTVQCTHGIRPVVSTQLLLNGSLAEDVVLRSENFTNNAKTIIVQLKEPVIINCTRPNNNTRKSIPMGPGRAWYTTGEIIGDIRQAHCNINKAQWNKTLQQVVTKLREQFGNKTIVFNQPTGGDPEIVMHSFNCGGEFFYCNTSKLFNSTWNNSTQGFNSTGESNTTITIQCTIKQIINMWQQVGKAMYAPPIAGQIKCSSNITGLLLTRDGGGNKTENETFRPAGGDMRDNWRSELYKYKVVQIKPLGIAPTKAKRRVVQREKRAVGIGALFLGFLGAAGSTMGAAAVTLTVQARQLLSGIVQQQNNLLRAIEAQQHMLQLTVWGIKQLQARVLAVERYLRDQQLLGIWGCSGKLICTTTVPWNNSWSNKSLDDIWGNMTWMEWEKEIDNYTYTIYKLIEESQNQQEKNEQELLELDKWANLWNWFDITNWLWYIKIFIIIVGGLIGLRIVFAVLSIVNRVRQGYSPLSLQTLLPAPRGPDRPGEIEEEGGERDKDTSVRLVNGFLAIIWDDLRSLCLFSYRHLRDLLLIVTRIVGLLGHRGWEVLRYWWNLLQYWIQELKNSAVSLLNVTAIAVAEGTERVIEIAQRACRAVLHIPRRIRQGLERGLL
Regarding B1, the “neutralization IC50” value with antibody 10-1074 [1] is more than 50 µg/mL; with antibody 3BNC117 [2], 0.033 µg/mL. The “neutralization IC80” value in the experiment with antibody 10-1074 [3] was more than 50 µg/mL; with antibody 3BNC117 [4], 0.115 µg/mL.

B2: HIV-1 Env, rebound clone, antibody arm (protein)
chain: B1 chain with D468N, E821D
Regarding B2, the “neutralization IC50” value in the experiment with antibody 10-1074 [1] was more than 50 µg/mL; in the experiment with antibody 3BNC117 [2], 0.069 µg/mL. Further, the “neutralization IC80” value is more than 50 µg/mL with antibody 10-1074 [3] and 0.233 µg/mL with antibody 3BNC117 [4].

B3: HIV-1 Env, rebound clone, antibody arm (protein)
chain: B1 chain with N277H, E821D
Consider B3, for which the “neutralization IC50” value in the experiment with antibody 10-1074 [1] was more than 50 µg/mL; with antibody 3BNC117 [2] it was 0.045 µg/mL. Besides, the figures for the “neutralization IC80” value with antibody 10-1074 [3] and in the experiment with antibody 3BNC117 [4] were more than 50 µg/mL and 0.186 µg/mL, respectively.

B4: HIV-1 Env, rebound clone, antibody arm (protein)
chain: MKVKGTQRNWQPLWILILGLVIICRASDNLWVTVYYGVPVWEDADTPLFCASDAKAYKTEKHNVWATHACVPTDPNPQEIILQNVTETFNMWKNNMVEQMHEDIISLWDESLKPCVKLTPLCVTLNCTDANFTMTNNNTNKVEAKNCTFNITTEIRDKKKKEYALFYKLDVVQMDESSTNSSTNSGTYRLINCNVSTIKQACPKVSFEPIPIHYCAPAGFAILKCNDKEFNGTGECKNVSSVQCTHGIKPVVSTQLILNGSLAEKEIMIRSENITNNAKIIIVQLNETVKINCSRPNNNTRRSIHIGPGQAFYAFRDVIGDIRQAHCNVRRTEWSKTLNRVAIQLRKHFSTNTTITFASPLGGDLEITTHSFNCGGEFFYCNTSALFNSTWNSTSTWNSTTSSNFTKDITLQCRIKQIVNMWQKVGQAMYAPPIEGVIRCESNITGLLLTRDGGTNETCSHSPNETFRPGGGDMRDNWRSELYKYKIIKIKPLGIAPTRARRRVVQREKRAVGLGTFFLGFLGTAGSTMGAASITLTVQVRQLLSGIVQQQSNLLRAIDAQQHLLQLTVWGIKQLQARVLAVERYLKDQQLLGIWGCSGKLICTTNVPWNTSWSNKSYNEIWDNMTWIQWEREVSNYTQQIYSLIEQSQNQQEKNEQDLLALDKWASLWSWFDITSWLWYIKIFIMIVGGLIGLRIVFAVLSIVNRVRQGYSPLSFQTLTHHQREPDRPERIEEGGGEQDKDRSVRLVSGFLALAWDDLRSLCLFLYHRLRDFVLIATRTLELLGHSSLRGLRLGWEALKYLWNLLLYWGRELKNSAINLLDTIAVGVANWTDRVIEVAQRVGRAFLNIPRRIRQGSERALL
With B4, the “neutralization IC50” value with antibody 10-1074 [1] was 1.45 µg/mL; with antibody 3BNC117 [2], 0.034 µg/mL. The “neutralization IC80” value with antibody 10-1074 [3] was found to be 9.65 µg/mL; with antibody 3BNC117 [4], 0.135 µg/mL.

B5: HIV-1 Env, rebound clone, antibody arm (protein)
chain: B4 chain with G186S, H326Y, N328K, R330S, D476N, S857F, R859G
Turning to B5, the “neutralization IC50” value with antibody 10-1074 [1] was determined as 41.8 µg/mL; with antibody 3BNC117 [2], 0.02 µg/mL. The “neutralization IC80” value is more than 50 µg/mL in the experiment with antibody 10-1074 [3] and 0.095 µg/mL with antibody 3BNC117 [4].

B6: HIV-1 Env, rebound clone, antibody arm (protein)
chain: MRVRETLRNYRLWWIWGILGFWMLMICKGGGDSWVTVYYGVPVWKEAKTTLFCASDAKAYETEMHNVWATHACVPTDPNPQEVPLENVTENFNMWKNDMVEQMHEDVISLWDESLKPCVKLTPLCVTLKCTNATSNGTDTNKTADGYNEIKNCSFNATTIVKDKKQKVYALFYRLDIVPLGNSSEYRLINCNTSAMTQACPKVSFDPIPIHYCAPAGYAIIKCNNKTFNGTGPCNSVSTVQCTHGIKPVVSTQLLLNGSLAEEEIIIRSENLTNNAKIIIVHLNKSVEINCTRPGNNTRKSIRIGPGQTFYATGSIIGDIRKAHCNIRETAWNDTLYKVSKKLAEHFNKTIIFAPSSGGDLEITTHSFNCRGEFFYCNTSGLFKGTYNATSGNSTSNATITLPCRIKQVINMWQGVGKAMYAPPIEGNIICRSNITGLLLTRDGGSNSTDETFRPEGGDMRDNWRSELYKYKVVEIKPLGIAPTGAKRRVVEREKRAVGLGAVFLGFLGAAGSTMGAASITLTAQARQLLSGIVQQQSNLLRAIEAQQHMLQLTVWGIKQLQARVLALERYLQDQQLLGIWGCSGKLICTTAVPWNSSWSNRSREYIWENMTWMQWEREIENYTGTIYQLLEDSQNQQEKNEQDLLALDSWKNLWNWFGISKWLWYIKIFIMIVGGLIGLRILFAIISVVNRVRQGYSPLSFQTLTPNPGGPDRLGGIEEEGGEQDRDRSVRLVNGFLALAWDDLRSLCLFLYHRLRDFISVTVRVVELLGRSSLKGLQGGWEALKYLGNLVQYWISELKKSAISLLDTIAIAVAEGTDRIIDLIQEICRAILNIPRRIRQGFEAALQ
Take B6: the entries for the “neutralization IC50” value with antibody 10-1074 [1] and with antibody 3BNC117 [2] were more than 50 µg/mL and 0.058 µg/mL, respectively. Besides, the figures for the “neutralization IC80” value in the experiment with antibody 10-1074 [3] and in the experiment with antibody 3BNC117 [4] were more than 50 µg/mL and 0.274 µg/mL, respectively.

B7: HIV-1 Env, rebound clone, antibody arm (protein)
chain: B6 chain with R442H
For B7, the “neutralization IC50” value with antibody 10-1074 [1] and with antibody 3BNC117 [2] was more than 50 µg/mL in each case. Also, the “neutralization IC80” value in the experiment with antibody 10-1074 [3] and with antibody 3BNC117 [4] was more than 50 µg/mL throughout.

B8: HIV-1 Env, rebound clone, antibody arm (protein)
chain: B6 chain with L12P
Turning to B8, the “neutralization IC50” value with antibody 10-1074 [1] was more than 50 µg/mL; in the experiment with antibody 3BNC117 [2] it was 0.063 µg/mL. The results for the “neutralization IC80” value with antibody 10-1074 [3] and in the experiment with antibody 3BNC117 [4] were more than 50 µg/mL and 0.218 µg/mL, respectively.
